# US20090232831A1, “METHODS AND COMPOSITIONS FOR THE TREATMENT OR PREVENTION OF HUMAN IMMUNODEFICIENCY VIRUS INFECTION” (priority 2008, published 2009)
# Test system: 2G12 complex
# Assay: KD,surf of 2G12 complex on glycan-printed normal-NHS-density slide
# Type: binding
# Procedure: To further test its multivalent efficacy, 17 was immobilized onto a normal-NHS-density slide (FIG. 3d) at varying printing concentrations.
# Second generation Man9 dendron 17 on normal NHS density slide: Similar procedure as for normal density Man4 slide was used. Derivative of 17 with a linker connecting free amine was used for printing. The printing concentrations are 100, 80, 60, 40, 20, 10, 8, 6, 4, 2, 1, 0.8, 0.6, 0.4, 0.2, 0.1, 0.08, 0.06, 0.04, and 0.02 μM. The KD,surf of 2G12 complex was obtained (see Table 4) as previously described.
# Determination of KD,surf of glycodendron 17. The procedure is the same as that disclosed in Liang et al., “Quantitative analysis of carbohydrate-protein interactions using glycan microarrays: determination of surface and solution dissociation constants.” J Am Chem Soc 129:11177-11184 (2007), which is hereby incorporated by reference as if fully disclosed herein.
# [1] = lowest 2G12 concentration with signal to noise ratio greater than 10
substance,measurement,setting,value
Man4,detection limit of slide for the 2G12 complex,[1],3 g/mL
same,limit of detection of slide for 2G12,[1],3 µg/mL
same,critical printing concentration for 2G12 complex binding,same surface,40 M
